Earlier results as cited in patent US20240350659A1, “COMPOSITIONS AND METHODS FOR BIMODAL ANTI-VIRAL COMBINATION THERAPY” (priority 2021, published 2024).

Test system: SARS-COV-2
Conditions: WHO Solidarity Trial; cited from earlier work

B1: interferon beta-1a: repurposed anti-viral drug in the WHO Solidarity Trial (protein, UniProt P01574 22-187, looked up)
Interferon beta: MSYNLLGFLQRSSNFQCQKLLWQLNGRLEYCLKDRMNFDIPEEIKQLQQFQKEDAALTIYEMLQNIFAIFRQDSSSTGWNETIVENLLANVYHQINHLKTVLEEKLEKEDFTRGKLMSSLHLKRYYGRILHYLKAKEYSHCAWTIVRVEILRNFYFINRLTGYLRN
effect on hospitalized patients with Covid-19: little or no effect
